Laboratory results from PubChem BioAssay AID2152 (The Scripps Research Institute Molecular Screening Center, 2009).
This is a selection; strong and weak results do not stand in their true shares. The source made the active and inactive calls.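 Rule for the calls: active = mean inhibition over three replicate wells above the hit threshold derived in the earlier primary screen (cut at about 45% in these data); inactive = the rest.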

These compounds were tested on Hepatitis C virus core protein (core106 dimerization) (assay: blockers of core106 self-association – biochemical, TR-FRET, triplicate, confirmation (AID 2152;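 note: 0% = DMSO wells and 100% = unlabelled core106 competitor control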)). Details: TR-FRET GST-/Flag-core106 dimerization, HTRF; at 5 µM; hits give high values.
How it was run: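 Test system – GST- and Flag-tagged HCV core106 peptides, dimerization via antibody TR-FRET · Amount – 17 nM Flag- plus 13.5 nM GST-core106 · Schedule – 4 h incubation, 22.5 °C · Compound dosing – one 5 µM dose, 0.5% DMSO · Detection – TR-FRET, 340 nm excitation, 671/617 nm emission · Reagent – Eu(K)-anti-GST plus XL665-anti-FLAG antibodies · Read-out basis – percent inhibition from emission ratio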

Compound	inhibition
C[N+]1=C2C=CC=CC=C2SC12C([N+](=O)[O-])=CC([N+](=O)[O-])=C[C-]2[N+](=O)[O-] (configuration not stated)	inactive: -19.6%
O=[N+]([O-])c1cc([N+](=O)[O-])c(CCN2CCOCC2)c([N+](=O)[O-])c1	inactive: 7.9%
